# PubChem BioAssay AID504761, Drosophila RNAi Screening Center | 2011
# Test: 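Fly genes whose silencing reduces dengue virus type 2 infection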 (primary screen)
# Cell system: D.Mel-2 cells from Drosophila
# Reagent: long dsRNA against Drosophila genes
# Treatment: infection with dengue virus type 2; dose and infection time not stated
# Read-out: 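Per well on two replicate plates, imaging gave the percent of cells positive for viral envelope protein, ranked by infection, and a nuclear count of cells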
# Scale: infection score: higher = more virus-infected cells; cell count: higher = more cells in the well
# Active means: 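Low infection ranks in the two replicates (chance level up to 0.065) followed by a retest with a 1.5-fold or larger significant decrease, p below 0.05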
# Meaning of the calls: active = confirmed: knock-down lowers infection; inactive = not picked or not confirmed
# The screen tested about 22,000 reagents; shown is a random part of those that have a named target and a result. In the full data, 116 (0.52%) got an active call. 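Calls depend on retest data that are not deposited; infection was ranked per plate without normalising between plates; the unit of the infection score is not given.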 Raw values vary from plate to plate and are shown uncorrected. A number with no mark means an inactive call. The record does not give: the amount of reagent, the time to read-out.
"infection score, replicate 1","infection score, replicate 2","cell count, replicate 1","cell count, replicate 2",predicted target,amplicon
13,3.6,6603,6519,krimp,DRSC06578
9.23,19.9,6587,5242,CG2182,DRSC12308
3.67,6.71,5757,4799,CG2182,DRSC30052
5.17,13.8,1160,4155,kel,DRSC03554
2.02,18.9,6426,6014,CG34325,DRSC19802
1.86,8.24,6730,6529,CG34325,DRSC20200
8.25,9.73,6109,6148,CG32487,DRSC21745
27.2,7.77,6011,3641,CG32487,DRSC29078
5.48,9.95,2264,2763,CG7044,DRSC16180
5.23,3.35,5962,6365,pelo,DRSC03588
10.5,3.32,6299,6079,GIIIspla2,DRSC18094
16.9,2.84,6720,6689,GIIIspla2,DRSC27426

Quoted from the listing, 3 entries:
"infection score, replicate 1","infection score, replicate 2","cell count, replicate 1","cell count, replicate 2",predicted target,amplicon
27.2,7.77,6011,3641,CG32487,DRSC29078
5.48,9.95,2264,2763,CG7044,DRSC16180
5.23,3.35,5962,6365,pelo,DRSC03588

Further entries follow:
"infection score, replicate 1","infection score, replicate 2","cell count, replicate 1","cell count, replicate 2",predicted target,amplicon
21.4,0.65,2728,464,CG13920,DRSC08389
3.36,4.12,6724,6965,otp,DRSC04050
1.88,2.4,6753,7127,otp,DRSC04707
12.9,4.42,6697,6610,otp,DRSC28164
13.9,2.38,6127,6967,ort,DRSC16240
1.41,0.34,6435,5363,CG12607,DRSC08287
7.93,15.4,5357,4952,CG15043,DRSC19619
15.8,13.4,2907,4768,CG15043,DRSC29563
3.92,8.4,6523,6682,CG14384,DRSC14842
1.59,2.66,6146,6582,Bili,DRSC14405
4,5.29,6724,4123,CG15239,DRSC17972
4.92,2,6603,6160,CG15239,DRSC25155
